Test results from patent publication EP0671947B1, “COMPOSITIONS FOR ELICITING CYTOTOXIC T-[…] AGAINST VIRUSES” (BOARD OF REGENTS THE UNIVERSITY OF TEXAS SYSTEM, priority 1991, dated 1993).

Test system: BALB/c mice
Assay: ELISA for anti-peptide antibody response after immunization
Conditions: high molecular weight forms

## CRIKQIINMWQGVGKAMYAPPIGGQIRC [Peptide 67]
  anti-peptide antibody titers (in words): high antibody titers
